## PSTVd loop 15 mutant pool in Nicotiana benthamiana

Data from the supplement of Wu et al. 2024, doi:10.1371/journal.ppat.1012142.

Region: loop 15 of PSTVd (intermediate strain), upper and lower strand joined, each 5' to 3', the first 7 letters being the upper strand, closing pairs included. Wild type: GGAAACCGCUACUAC. Varied positions (N): GGAAACCGNNNNNNC.

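Three N. benthamiana plants were inoculated with the whole mutant pool. Progeny were sequenced from the inoculated region (day 5), the margin of the inoculated leaf (day 10) and systemic leaves (day 12).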

Values are reads per thousand in the sample; higher means more abundant, 0 means not found.
Each site shows the three plants.
"Pool" is the share in the plasmid pool used as inoculum, on the same scale.
The inoculated region was read from the minus strand, the other sites from the plus strand.
With 43,870-66,106 reads a sample, very low values are single reads.
Sequences that differ at fixed positions probably stem from PCR or sequencing errors, and defective variants can be carried along by functional ones.
Wild type was 33.9 per thousand in the pool and the most common sequence in every sample (inoculated region 202, 200, 159; leaf margin 724, 746, 710; systemic leaves 856, 883, 880).

{"sequence": "GGAAACCGCGUCAAC", "pool": "0.160", "inoculated region": "0.147 / 0.0161 / 0.0571", "leaf margin": "0 / 0 / 0", "systemic leaves": "0 / 0 / 0"}
{"sequence": "GGAAACCGCGUCACC", "pool": "0.176", "inoculated region": "0.0655 / 0.145 / 0.152", "leaf margin": "0.0323 / 0 / 0.0200", "systemic leaves": "0 / 0 / 0"}
{"sequence": "GGAAACCGCGUCAGC", "pool": "0.176", "inoculated region": "0.0983 / 0.0803 / 0.190", "leaf margin": "0 / 0.0223 / 0.0200", "systemic leaves": "0 / 0 / 0"}
{"sequence": "GGAAACCGCGUCAUC", "pool": "0.128", "inoculated region": "0.180 / 0.112 / 0.0762", "leaf margin": "0 / 0 / 0.0200", "systemic leaves": "0 / 0 / 0"}
{"sequence": "GGAAACCGCGUCCAC", "pool": "0.272", "inoculated region": "0.115 / 0.145 / 0.0762", "leaf margin": "0 / 0 / 0.0601", "systemic leaves": "0 / 0 / 0"}
{"sequence": "GGAAACCGCGUCCCC", "pool": "0.256", "inoculated region": "0.0655 / 0.0964 / 0.0762", "leaf margin": "0.0485 / 0 / 0", "systemic leaves": "0 / 0 / 0"}
{"sequence": "GGAAACCGCGUCCGC", "pool": "0.272", "inoculated region": "0.0819 / 0.129 / 0.0952", "leaf margin": "0 / 0 / 0.0200", "systemic leaves": "0 / 0 / 0"}
{"sequence": "GGAAACCGCGUCCUC", "pool": "0.240", "inoculated region": "0.115 / 0.161 / 0.152", "leaf margin": "0 / 0.0223 / 0.0200", "systemic leaves": "0 / 0 / 0"}
{"sequence": "GGAAACCGCGUCGAC", "pool": "0.224", "inoculated region": "0.0655 / 0.0803 / 0.0762", "leaf margin": "0 / 0 / 0.0200", "systemic leaves": "0 / 0 / 0"}
{"sequence": "GGAAACCGCGUCGCC", "pool": "0.352", "inoculated region": "0.0328 / 0.0643 / 0.0571", "leaf margin": "0 / 0.0223 / 0.0401", "systemic leaves": "0 / 0 / 0"}
{"sequence": "GGAAACCGCGUCGGC", "pool": "0.192", "inoculated region": "0.147 / 0.225 / 0.133", "leaf margin": "0 / 0 / 0", "systemic leaves": "0.0322 / 0 / 0"}
{"sequence": "GGAAACCGCGUCGUC", "pool": "0.192", "inoculated region": "0.131 / 0.0482 / 0.152", "leaf margin": "0 / 0.0445 / 0.0601", "systemic leaves": "0 / 0 / 0"}
{"sequence": "GGAAACCGCGUCUAC", "pool": "0.240", "inoculated region": "0.344 / 0.305 / 0.438", "leaf margin": "0.113 / 0.111 / 0.120", "systemic leaves": "0.0322 / 0 / 0"}
{"sequence": "GGAAACCGCGUCUCC", "pool": "0.416", "inoculated region": "0.147 / 0.0964 / 0.0762", "leaf margin": "0.0162 / 0.0223 / 0.0401", "systemic leaves": "0 / 0 / 0"}
{"sequence": "GGAAACCGCGUCUGC", "pool": "0.336", "inoculated region": "0.164 / 0.0321 / 0.0952", "leaf margin": "0.0162 / 0 / 0", "systemic leaves": "0 / 0 / 0.0228"}
{"sequence": "GGAAACCGCGUCUUC", "pool": "0.256", "inoculated region": "0.0655 / 0.145 / 0.114", "leaf margin": "0.0162 / 0.0223 / 0.0401", "systemic leaves": "0 / 0 / 0.0228"}
{"sequence": "GGAAACCGCGUGAAC", "pool": "0.240", "inoculated region": "0.0655 / 0.0161 / 0.133", "leaf margin": "0.0162 / 0.0223 / 0.0200", "systemic leaves": "0 / 0 / 0"}
{"sequence": "GGAAACCGCGUGACC", "pool": "0.288", "inoculated region": "0.147 / 0.112 / 0.0381", "leaf margin": "0.0323 / 0.423 / 0", "systemic leaves": "0.0161 / 0 / 0"}
{"sequence": "GGAAACCGCGUGAGC", "pool": "0.224", "inoculated region": "0.0983 / 0.129 / 0.248", "leaf margin": "0 / 0 / 0", "systemic leaves": "0.0161 / 0 / 0"}
{"sequence": "GGAAACCGCGUGAUC", "pool": "0.240", "inoculated region": "0.0655 / 0.112 / 0.209", "leaf margin": "0.0162 / 0 / 0", "systemic leaves": "0 / 0 / 0.0228"}
{"sequence": "GGAAACCGCGUGCAC", "pool": "0.160", "inoculated region": "0.131 / 0.0803 / 0.0952", "leaf margin": "0.0162 / 0.0223 / 0.0401", "systemic leaves": "0 / 0 / 0"}

2 of these entries, quoted again:

sequence,pool,inoculated region,leaf margin,systemic leaves
GGAAACCGCGUCAGC,0.176,0.0983 / 0.0803 / 0.190,0 / 0.0223 / 0.0200,0 / 0 / 0
GGAAACCGCGUCAUC,0.128,0.180 / 0.112 / 0.0762,0 / 0 / 0.0200,0 / 0 / 0